Anti-infective test results gathered from many reports (values: NIAID ChemDB through PubChem).

Shared fields: growth or infection tests; agent: Mycobacterium tuberculosis

Percent inhibition refers to the dose given; in toxicity tests it is the harm to the cells.

SMILES	changes	strain or isolate	read-out	method	dose	setting	value
Cc1c(N2C[C@@H](N)C3(CC3)C2)c(F)cc2c(=O)c(C(=O)O)cn([C@@H]3C[C@@H]3F)c12		45 (RFP-resistant)	MIC				0.78 µg/mL
S=C(N1CCN(c2ccccc2)CC1)N1CCN(c2ccccc2)CC1		H37Rv	inhibition	resazurin	6.25 µg/mL		-7%
COc1cc(CNCCNCc2ccccc2F)cc(OC)c1OC			MIC				50 µM
CCOC(=O)Nc1cc2[nH]cnc2c(NC(=O)OCC)n1		H37Rv	EC50				>12.5 µg/mL
COc1ccc(CCC2CCc3ccccc3N2C)cc1OC		MT7	MIC				80 µg/mL
O=C1NNC(=O)c2ccccc2C(=O)S1		H37Rv	inhibition	BACTEC	12.5 µg/mL		-3%
CC(C)=CCOc1c2ccoc2cc2oc(=O)ccc12	Isoniazid rifampicin ethambutol-resistant	H37Rv clinical isolate CRY8	MIC100	resazurin			50 µg/mL
CC(NNC(=O)c1ccncc1)c1ccc(Cl)cc1Cl		H37Rv	MIC				3.13 µg/mL
Cc1ccc(-n2cc(CS(=O)(=O)C3c4ccccc4-c4ccccc43)nn2)cc1C		H37Rv	MIC99	broth dilution			120 µM
CC(C)C[C@@H](CO)NCCNCCc1ccc(Cl)cc1Cl			MIC				25 µM
Cc1cc(-c2cc3c(cc2F)c(=O)c(C(=O)O)cn3C2CC2)cc(C)n1		131-4	MBC				4 µg/mL
COc1c2occc2c(OC)c2c(=O)cc(/C=C/c3ccncc3)oc12		H37Rv	MIC bound	BACTEC			>12.5 µg/mL
CCOC(=O)Nc1cc(NC(C)C(=O)Cc2ccccc2)c([N+](=O)[O-])c(N)n1		H37Rv	inhibition		12.5 µg/mL		0%
COc1cccc(NC(=O)C2=C(C)NC(C)=C(C(=O)Nc3cccc(OC)c3)C2c2ccc(O)cc2)c1		H37Rv	MIC				>6.25 µg/mL
N[C@@H]1CN(c2c(F)cc3c(=O)c(C(=O)O)cn([C@@H]4C[C@@H]4F)c3c2Cl)CC12CC2	MDR (rifampicin- isoniazid-resistant)	Clinical strain	MIC90	resazurin			0.0625 µg/mL
CCCCCCCCCCCNCCNC(C)CC(C)C			MIC				25 µM
O=C1C[C@@H](c2ccc(O)cc2)Oc2c1c(O)cc(O[C@@H]1O[C@H](CO)[C@@H](O)[C@H](O)[C@H]1O)c2[C@H]1C(=O)c2c(O)cc(O)cc2O[C@@H]1c1ccc(O)cc1			EC50				>12.5 µg/mL
CC(=O)N1CCN(C(C)=O)C1=S		H37Rv	MIC bound	BACTEC			>12.5 µg/mL
CC(=O)NC[C@H]1CN(c2ccc(N3CCOCC3)c(F)c2)C(=O)O1		Strain 7	MIC				0.25 µg/mL
NC(=O)c1cccnc1		H37Rv	MIC	BACTEC			≥12.5 µg/mL
CCCCCCCCCCCCCCCCCCNCCNC12CC3CC(CC(C3)C1)C2			MIC				25 µM
CC[C@H](CO)NCCNC[C@]1(C)CCC[C@]2(C)c3ccc(C(C)C)cc3CC[C@@H]12			MIC				50 µM
CC1(C)[C@@H]2CC[C@@]1(C)[C@@H](NCCNC1CCCCCCC1)C2			MIC				12.5 µM
Nc1ncc2c(n1)Oc1cc3nc4c(=O)nc(N)nc-4oc3cc1N2		H37Rv	MIC bound	BACTEC			>12.5 µg/mL
CC1=C(C(=O)Nc2ccc(Cl)cc2)C(c2ccc(Cl)cc2Cl)C(C(=O)Nc2ccc(Cl)cc2)=C(C)N1		H37Rv	MIC				>12.5 µg/mL
CCOC(=O)Nc1cc(NC(C)C(O)c2ccc(O)cc2)c([N+](=O)[O-])c(N)n1		H37Rv	inhibition		12.5 µg/mL		0%
CC1CCCC(NCCNCc2ccc(C(F)(F)F)cc2)C1C			MIC				>50 µM
N#C[B][n+]1ccc(C(=O)NNCc2cccc(F)c2)cc1		H37Rv	MIC				0.8 µg/mL
Cc1ccc(-n2cc(CNC3c4ccccc4-c4ccccc43)nn2)cc1		Specimen 192	MIC99	broth dilution			142 µM
CCCCCCCCC/C=N/NC(=O)C(=O)N/N=C/CCCCCCCCC		H37Rv	MIC bound	BACTEC			>12.5 µg/mL
CC(C)c1ccc2c(c1)CC[C@H]1[C@](C)(CNCCN[C@H](CO)Cc3ccc(Cl)cc3)CCC[C@]21C			MIC				25 µM
S=C(S)NC1CCCCCCCCCCC1		H37Rv	MIC	BACTEC			≥12.5 µg/mL
CCN=c1cc2n(-c3ccc(C(F)(F)F)cc3)c3ccccc3nc-2cc1Nc1ccc(C(F)(F)F)cc1		14	MIC			multidrug-resistant	≤0.06 µg/mL
COc1cc(C2C(C(=O)Nc3ccc([N+](=O)[O-])cc3)=C(C)NC(C)=C2C(=O)Nc2ccc([N+](=O)[O-])cc2)cc(OC)c1OC		H37Rv	MIC				>6.25 µg/mL
NNC(=O)c1ccncc1		Strain 32	MIC				0.06 µg/mL
CC(C)(CO)NCCNCCN1CCOCC1			MIC				50 µM
COc1ccn(C)c(=O)c1C#N		H37Rv	MIC bound	BACTEC			>12.5 µg/mL
CCCCC(CC)CN1CN(CC(CC)CCCC)CC(C)(NCCNC(C)C)C1			MIC				25 µM
CC(NNC(=O)c1ccncc1)c1cccc(C(F)(F)F)c1		Rifampicin-resistant	MIC				3.13 µg/mL
CC1=C(C(=O)Nc2ccc([N+](=O)[O-])cc2)C(c2ccc(N(C)C)cc2)C(C(=O)Nc2ccc([N+](=O)[O-])cc2)=C(C)N1		H37Rv	EC50				<2.5 µg/mL
CO[C@H]1/C=C/O[C@@]2(C)Oc3c(C)c(O)c4c(O)c(c(/C=N/N5CCN(C)CC5)c(O)c4c3C2=O)NC(=O)/C(C)=C\C=C\[C@H](C)[C@H](O)[C@@H](C)[C@@H](O)[C@@H](C)[C@H](OC(C)=O)[C@@H]1C		H37Rv	MIC				<0.19 µM
NC1CN(c2c(F)cc3c(=O)c(C(=O)O)cn(C4CC4)c3c2Cl)CC12CC2		44 (RFP-resistant)	MIC				0.1 µg/mL
Cc1ccc2ccccc2c1CC(=O)NN		H37Rv	inhibition	BACTEC	12.5 µg/mL		-6%
C=CCN(CCNCCc1ccccc1OC)C1CCCC1			MIC				25 µM
CCCCCCCCCCCNCCNCc1cccc(C)c1			MIC				6.25 µM
COc1cc(C2C(C(=O)Nc3ccc(Cl)cc3)=C(C)NC(C)=C2C(=O)Nc2ccc(Cl)cc2)cc(OC)c1OC		H37Rv	EC50				<2.5 µg/mL
NCC[C@H](O)C(=O)N[C@@H]1C[C@H](N)[C@@H](O[C@H]2O[C@H](CN)[C@@H](O)[C@H](O)[C@H]2O)[C@H](O)[C@H]1O[C@H]1O[C@H](CO)[C@@H](O)[C@H](N)[C@H]1O		MDR6	MIC	broth dilution / resazurin			1 µg/mL
CCn1c2ccc(N)cc2c2c(N)c(-n3cccc3)ccc21		H37Rv	MIC	BACTEC			>12.5 µg/mL
CC1(C)[C@H]2CC[C@@H](CNCCNCCc3ccccc3Cl)[C@@H]1C2			MIC				50 µM
CCCCC(CC)CN1CN(CC(CC)CCCC)CC(C)(NCCNC(C)CC(C)C)C1			MIC				25 µM
CCOC(=O)c1ccc(NC(=O)ON=C(Cl)C(C)C)cc1		H37Rv	MIC bound	resazurin			>6.25 µg/mL
CO[C@H]1/C=C/O[C@@]2(C)Oc3c(C)c(O)c4c(O)c(c(/C=N/N5CCN(C6CCCC6)CC5)c(O)c4c3C2=O)NC(=O)/C(C)=C\C=C\[C@H](C)[C@H](O)[C@@H](C)[C@@H](O)[C@@H](C)[C@H](OC(C)=O)[C@@H]1C		Isolate 900201 drug-susceptible	MIC				0.063 µg/mL
CC1(C)Oc2ccc3c(=O)c4ccccc4oc3c2C1C(=O)O		H37Rv	inhibition	BACTEC	12.5 µg/mL		0%
COc1ccc(OC)c(CCNCCNC2CCCCCCC2)c1			MIC				50 µM
CCOC(=O)Nc1cc(NC(O)CCCN(CC)CC)c2ncc(-c3cc(OC)c(OC)c(OC)c3)nc2n1		H37Rv	inhibition		12.5 µg/mL		40%
CCc1ccc([C@H]2C[C@@H](C(F)(F)F)n3ncc(C(=O)NCc4ccc(OC)cc4)c3N2)cc1	MmpL3: Ala677Val	H37Rv	fold resistance	fluorescence			>8
CC1=C(C(=O)Nc2cccc([N+](=O)[O-])c2)C(c2ccc(Cl)cc2Cl)C(C(=O)Nc2cccc([N+](=O)[O-])c2)=C(C)N1		H37Rv	inhibition		2.5 µg/mL		98%
O=C(NNCc1ccccc1)c1ccncc1		H37Rv (ethionamide-resistant)	MIC				>31.25 µg/mL
C=CCOP1(OCC=C)=NP(OCC=C)(OCC=C)=NP(OCC=C)(OCC=C)=N1		H37Rv	MIC	BACTEC			≥128 µg/mL
Brc1ccc(-n2cc(CNC3c4ccccc4-c4ccccc43)nn2)cc1		H37Rv	MIC99	broth dilution			240 µM
Cc1c(N2CC3CCCNC3C2)c(F)cc2c(=O)c(C(=O)O)cn([C@@H]3C[C@@H]3F)c12		40 (RFP-susceptible)	MIC				0.006 µg/mL
O=S(=O)(Cc1cn(-c2ccc(Cl)cc2)nn1)C1c2ccccc2-c2ccccc21		Specimen 192	MIC99	broth dilution			119 µM
Cc1cc2nc3c(=O)[nH]c(=O)nc-3n(CC(O)C(O)C(O)CO)c2cc1C.OB(O)O		H37Rv	MIC bound	BACTEC			>12.5 µg/mL
O=C(O)c1ccc(O)c(C(=O)/C=C/c2cccc(I)c2)c1		H37Rv	EC50				>12.5 µg/mL
CN(C)c1ccc(/C=C/c2nc3ccc([N+](=O)[O-])cc3[nH]2)cc1		H37Rv	inhibition	resazurin	6.25 µg/mL		3%
CSc1ccc(C2C(C(=O)Nc3ccccc3Cl)=C(C)NC(C)=C2C(=O)Nc2ccccc2Cl)cc1		H37Rv	EC50				<2.5 µg/mL
O=C(N/N=C/c1cccc(C(F)(F)F)c1)c1ccncc1		Rifampicin-resistant	MBC				0.05 µg/mL
CCN(CC)Cc1c(C)[nH]c2c(OC)cccc2c1=O		H37Rv	inhibition	BACTEC	12.5 µg/mL		0%
O=C(/C=C/c1ccccc1)c1cccc(I)c1O			inhibition		12.5 µg/mL		0%
CCOC(=O)Nc1cc2[nH]c(-c3ccc(C)cc3)nc2c(N(CC)CC)n1		H37Rv	EC50				<12.5 µg/mL
CC(C)C[C@@H](CO)NCCNCCc1ccc(Cl)cc1Cl			MIC				25 µM
CCCCC(CC)CN1CN(CC(CC)CCCC)CC(C)(NCCNC(C)CCc2ccccc2)C1			MIC				25 µM
O=[N+]([O-])c1cc(F)ccc1-n1cc(CSC2c3ccccc3-c3ccccc32)nn1		H37Rv	MIC99	broth dilution			>239 µM
COc1ccc(/C=C/C(=O)c2ccccc2F)cc1			inhibition		12.5 µg/mL		82%
CNC(=O)c1cc(NC(=O)N(CCC#N)CCN(C(=O)NC(Cc2ccccc2)C(=O)NC(CC(C)C)C(=O)NC)c2ccccc2)ccc1OC		H37Rv	inhibition	resazurin	6.25 µg/mL		-8%
C=C(C)/C=C/[C@]12C[C@H](C)[C@H]3CC[C@](C)(N)[C@@H](CC[C@H]1C)[C@@H]32		H37Rv	MIC				6 µg/mL
COC(=O)[C@H]1[C@H]2C[C@@H]3c4[nH]c5ccccc5c4CCN3C[C@H]2C[C@@H](OC(=O)c2cc(OC)c(OC)c(OC)c2)[C@@H]1OC		H37Rv	inhibition	BACTEC	12.8 µg/mL		58%
O=S(=O)(Cc1cn(-c2ccc(Cl)c(Cl)c2)nn1)C1c2ccccc2-c2ccccc21		Specimen 192	MIC99	broth dilution			>219 µM
COC(=O)c1cc(Cl)ccc1OCC(O)CNc1ccc(Cl)cc1C(=O)c1ccccc1		H37Rv	inhibition	resazurin	6.25 µg/mL		1%
Cc1ccc(-n2cc(CSC3c4ccccc4-c4ccccc43)nn2)cc1C		H37Rv	MIC99	broth dilution			>261 µM
CC1=C(C(=O)Nc2ccc(Cl)cc2)C(c2cccc([N+](=O)[O-])c2)C(C(=O)Nc2ccc(Cl)cc2)=C(C)N1		H37Rv	MIC				>12.5 µg/mL
CC(NNC(=O)c1ccncc1)c1ccc(Cl)c(Cl)c1		Ethambutol-resistant	MIC				≤0.78 µg/mL

The last 7 rows once more:

SMILES,changes,strain or isolate,read-out,method,dose,setting,value
C=C(C)/C=C/[C@]12C[C@H](C)[C@H]3CC[C@](C)(N)[C@@H](CC[C@H]1C)[C@@H]32,,H37Rv,MIC,,,,6 µg/mL
COC(=O)[C@H]1[C@H]2C[C@@H]3c4[nH]c5ccccc5c4CCN3C[C@H]2C[C@@H](OC(=O)c2cc(OC)c(OC)c(OC)c2)[C@@H]1OC,,H37Rv,inhibition,BACTEC,12.8 µg/mL,,58%
O=S(=O)(Cc1cn(-c2ccc(Cl)c(Cl)c2)nn1)C1c2ccccc2-c2ccccc21,,Specimen 192,MIC99,broth dilution,,,>219 µM
COC(=O)c1cc(Cl)ccc1OCC(O)CNc1ccc(Cl)cc1C(=O)c1ccccc1,,H37Rv,inhibition,resazurin,6.25 µg/mL,,1%
Cc1ccc(-n2cc(CSC3c4ccccc4-c4ccccc43)nn2)cc1C,,H37Rv,MIC99,broth dilution,,,>261 µM
CC1=C(C(=O)Nc2ccc(Cl)cc2)C(c2cccc([N+](=O)[O-])c2)C(C(=O)Nc2ccc(Cl)cc2)=C(C)N1,,H37Rv,MIC,,,,>12.5 µg/mL
CC(NNC(=O)c1ccncc1)c1ccc(Cl)c(Cl)c1,,Ethambutol-resistant,MIC,,,,≤0.78 µg/mL

ECn is the concentration giving n% inhibition of infection, replication or growth. MIC bound comes from a single tested concentration. Fold resistance has wild type as its base. A number after MIC or MFC names an inhibition level or a share of isolates. Lines come from different laboratories, so protocols vary. An empty or dashed field is not shown.